Data on one sequence can be found in PMC11005409.

By UniProt entry, the sequences of proteins in these tests, tags left out. Where a name states a change or a piece, a line headed by the entry shows the natural chain unless it says otherwise.
UniProt P0AE88: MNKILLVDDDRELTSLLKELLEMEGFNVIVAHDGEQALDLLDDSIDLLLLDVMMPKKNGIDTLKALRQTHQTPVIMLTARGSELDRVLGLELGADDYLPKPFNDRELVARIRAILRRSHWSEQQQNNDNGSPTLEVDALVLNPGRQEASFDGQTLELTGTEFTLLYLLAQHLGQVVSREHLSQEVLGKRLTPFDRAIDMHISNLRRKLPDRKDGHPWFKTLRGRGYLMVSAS

The data set concerns the target CpxR (phosphorylated) (UniProt P0AE88). Put plainly: EMSA. The conditions noted are these: CpxR phosphorylated with acetyl phosphate, 1-5 ug CpxR (legend prints mg), unlabeled probe control in lane 7; LightShift Chemiluminescent EMSA Kit binding reaction (composition not stated), 40 ng/mL probe (legend: 40 ng/uL), room temperature 30 min, 6% polyacrylamide gel; recombinant protein; protein details: His tag (pET28a NdeI/BamHI, Ni-NTA); label: biotin 3' end; probe letters rebuilt from the primers and the genome.

Construct, isoform or probe ends are uncertain for at least one entry.

Take “ACCCATCAGTAAAGGAATTAATTTAAACAACCATCCGATATATATATTCATTTTAAACCCCATATATATTTTCTGCTACACTTCGAAAAACATATGATTCGTCTTTTCAGTTAGTTAAATATGTCTATAAGATGCCATCAATTAAAAAAAGTAACTTCACTATAATCGGATTTAGCGTTATGGGGATCAACTTTTAGCGGTGAGTTAATGCTATTAAATAAATATTTATCCTAAGATAAACTCTGAATTAATATCTTTATCTTATTTTGTTGTTTTAAATGAGTCTTTTAGGAAATATTTTATTAAACCCACGAGCCTTTATCATCTATCATCTTTTCAGAATAAATTATTTTATATTCGGTATTTATTCGCATATCAGGCGATAATAACGCTATGTGATAGTC (double strand) [yhiM promoter region (0 to -400 bp)]”: the binding result is given as “binds”.
